Anti-infective test results gathered from many reports (values: NIAID ChemDB through PubChem).

All rows: host cell toxicity; cells: A549; measure: CC50

CCn: concentration that lowers growth or viability of the cells by n%. Conditions beyond the fields shown may differ between rows. An empty or dashed field is not shown.

SMILES,method,value
CC(C)(C)c1ccc(CN2CCC3(CC2)C(=O)N(CC2CC2)c2ccccc23)cc1,resazurin,33 µM
COc1cc([C@@H]2c3cc4c(cc3[C@H](OC(C)=O)[C@@H]3COC(=O)[C@H]23)OCO4)cc(OC)c1O,,0.23 µM
CC(=O)c1cc([N+](=O)[O-])c(N2CCC(C)CC2)s1,resazurin,65 µg/mL
O=C1N(CC2CC2)c2ccccc2C12CCN(CC1CCCO1)CC2,resazurin,>50 µM
Oc1ccccc1[Se][Se]c1ccccc1O,MTT,7.5 µg/mL
O=c1c2ccccc2[se]n1-c1cc(Cl)ccn1,,100 µg/mL
CCCCCCCCCCCCCCCCOP(=O)([O-])OCCC[N+](C)(C)C,MTT,41.5 µM
CCCn1[se]c2ncccc2c1=O,,5 µg/mL
CCCCNS(=O)(=O)c1ccc(NC(=O)CCC[Se][Se]CCCC(=O)Nc2ccc(S(=O)(=O)NCCCC)cc2)cc1,MTT,40 µg/mL
CC(C)(C)n1[se]c2ncccc2c1=O,,10 µg/mL
C=CCOC(=O)O[C@@H]1COC(Oc2c3c(c(-c4ccc5c(c4)OCO5)c4cc(OC)c(OC)cc24)C(=O)OC3)[C@H](OC(=O)OCC=C)[C@H]1O,absorbance,0.7383 µM
CCCNC(=O)Nc1ccccc1[Se][Se]c1ccccc1NC(=O)NCCC,MTT,3 µg/mL
CC(C)NS(=O)(=O)c1nc(-c2ccc(Cl)cc2)n[nH]1,MTT,>100 µg/mL
NC(=NC1CC1)c1ccc(N2CCN(c3ccc(C(N)=NC4CC4)cc3)CC2)cc1,,>60.2 µg/mL
Cn1[se]c2ncccc2c1=O,,8.5 µg/mL
O=C1OCC2OC(O)C(O)C(O)C2OC(=O)c2cc(O)c(O)c(O)c2-c2c(O)c(O)c3oc(=O)c4c(c(O)c(O)c5oc(=O)c2c3c54)-c2c1cc(O)c(O)c2O,XTT,311 µM
COC(=O)[C@H]1C2CON=C2c2cc3c(cc2[C@H]1c1cc(OC)c(OC)c(OC)c1)OCO3,,5.7 µM
C/C=C/c1ccc2c(c1)[C@H](C)[C@@H](c1ccc(O)cc1)O2,sulforhodamine / absorbance,41.7 µM
O=C(O)C[C@@H]1C(=O)O[C@H]2[C@@H]3OC(=O)c4cc(O)c(O)c(O)c4-c4c(cc(O)c(O)c4O)C(=O)OC[C@H]2O[C@@H](OC(=O)c2cc(O)c(O)c(O)c2)[C@@H]3OC(=O)c2cc(O)c(O)c3c2[C@H]1[C@H](O)C(=O)O3,XTT,317 µM
Nc1ccn([C@@H]2C[C@@H](O)[C@H](CO)O2)c(=O)n1,,>100 µM
COC(OC)C(C)n1[se]c2ccccc2c1=O,visual reading,2.5 µg/mL
CC1CCN(c2sc([N+](=O)[O-])cc2[N+](=O)[O-])CC1,resazurin,4 µg/mL
COc1ccc(-c2noc(C3=CC4(CCN(CC(=O)N(C)C)CC4)c4ccccc43)n2)cc1,resazurin,12 µM
O=c1c2cccnc2[se]n1C1CCCCC1,,6 µg/mL
CC1CC(C)CN(c2ccc([N+](=O)[O-])s2)C1,resazurin,84 µg/mL
O=C(NC1CCCCC1)n1[se]c2ccccc2c1=O,visual reading,34 µg/mL
Cc1cc(NS(=O)(=O)c2ccc(N3C(=O)CSC3c3ccc(Cl)cc3)cc2)no1,MTT,>100 µg/mL
CCCCCCCCCCCCCCCCOP(=O)([O-])OCCC[N+](C)(C)Cc1ccccc1,MTT,57.6 µM
COc1cc([C@@H]2c3cc4c(cc3[C@H](OC(C)=O)[C@@H]3COC(=O)[C@@H]23)OCO4)cc2c1OC1(N3CCCC3)CCCCC1O2,,2.02 µM
N=C(N)c1ccc(N2CCCN(c3ccc(C(=N)N)cc3)CC2)cc1,,>83.5 µg/mL
CC1Oc2cc(O)c3c(=O)c4ccc(O)c(O)c4oc3c2C1(C)C,sulforhodamine / absorbance,6.43 µM
CO[C@H]1/C=C/O[C@@]2(C)Oc3c(C)c(O)c4c(O)c(c(/C=N/N5CCN(C)CC5)c(O)c4c3C2=O)NC(=O)/C(C)=C\C=C\[C@H](C)[C@H](O)[C@@H](C)[C@@H](O)[C@@H](C)[C@H](OC(C)=O)[C@@H]1C,MTT,>100 µg/mL
O=c1c2ccccc2[se]n1CCO,visual reading,4 µg/mL
NC(=O)c1nc(F)c[nH]c1=O,,>1000 µg/mL
COc1cc(-c2ccccc2)c(OC)c(OC)c1O,sulforhodamine / absorbance,>50 µM
O=C(Nc1cccc(Cl)c1)n1[se]c2ccccc2c1=O,visual reading,4.3 µg/mL
FC(F)(F)c1ccccc1-c1nc(=S)[nH][nH]1,MTT,>100 µg/mL
C1=C(c2nc(-c3ccccc3)no2)c2ccccc2OC12CCN(CC1CCCO1)CC2,resazurin,5 µM
COc1ccc(-c2cc(OC)c(O)c(OC)c2O)cc1,sulforhodamine / absorbance,>50 µM
COc1cc2c(OC3OCC(O)(CO)C3OC3OCC(O)C(O)C3O)c3c(c(-c4cc5c(cc4O)OCO5)c2cc1OC)C(=O)OC3,absorbance,>50 µM
C(=C1/CCCN(c2ccc(C3=NCCN3)cc2)C1)/c1ccc(C2=NCCN2)cc1,,47.6 µg/mL
O=c1[nH]c(=O)n([C@H]2C[C@H](O)[C@@H](CO)O2)cc1/C=C/Br,,1795 µM
O=C1c2c(O)cc(O)cc2O[C@@H](c2ccc(O)cc2)[C@@H]1c1c(O)cc(O)c2c(=O)cc(-c3ccc(O)c(O)c3)oc12,sulforhodamine / absorbance,>50 µM
CCCCCCCCCCCCCCCC[N+](C)(C)Cc1ccccc1,MTT,0.63 µM
COC(=O)[C@H]1[C@@H]2CON=C2c2cc3c(cc2[C@H]1C1=CC(=O)C(=O)C(OC)=C1)OCO3,,12 µM
CCCCn1[se]c2ccccc2c1=O,visual reading,5 µg/mL
CN=C(N)c1ccc(N2CCN(c3ccc(C(N)=NC)cc3)CC2)cc1,,>100 µg/mL
Nc1ccc(-c2nc(=S)[nH][nH]2)cc1,MTT,>100 µg/mL
O=C(CCC[Se][Se]CCCC(=O)Nc1ccc(S(=O)(=O)N2CCCCC2)cc1)Nc1ccc(S(=O)(=O)N2CCCCC2)cc1,MTT,275 µg/mL
CC(C)(C)c1ccc(CN2CCC3(CC2)C(=O)Nc2ccccc23)cc1,resazurin,>50 µM
O=c1c2ccccc2[se]n1-c1ccccc1,,15 µg/mL
O=c1cc(-c2ccc(Oc3c(O)cc4oc(-c5ccc(O)cc5)cc(=O)c4c3O)cc2)oc2cc(O)cc(O)c12,neutral red,27 µg/mL
O=C(Nc1ccccc1)n1[se]c2ccccc2c1=O,visual reading,58.5 µg/mL
CC(C)=CC[C@H]1C[C@@]2(C[C@H]3CCC(C)(C)C=C3C)C(=O)[C@](C(=O)c3ccccc3)(C(=O)C3=C2OC(C)(C)C=C3)C1(C)C,sulforhodamine / absorbance,>50 µM
C1=C(c2nc(-c3cccnc3)no2)c2ccccc2C12CCN(CC1CCCO1)CC2,resazurin,>100 µM
CCCCCCCCCCCCCCCCOP(=O)([O-])OCC[n+]1ccccc1,MTT,9.9 µM
c1cc(N2CCCN(c3ccc(/C(=N\C4=NCCCN4)NC4=NCCCN4)cc3)CC2)ccc1/C(=N/C1=NCCCN1)NC1=NCCCN1,,173.7 µg/mL
CC(=O)c1cc([N+](=O)[O-])c(N2CC(C)CC(C)C2)s1,resazurin,29 µg/mL
O=[N+]([O-])c1ccc(-c2n[nH]c(=S)s2)cc1,MTT,>100 µg/mL
Nc1ncnc2c1ncn2[C@@H]1C[C@@H](O)[C@H](CO)O1,,>100 µM
Cc1noc(C2=CC3(CCN(CC4CCCO4)CC3)c3ccccc32)n1,resazurin,>200 µM
COC1=CC([C@@H]2c3cc4c(cc3[C@H](OC(C)=O)[C@@H]3COC(=O)[C@H]32)OCO4)=CC(=O)C1=O,,0.59 µM
COc1ccc(-c2cc(=O)c3c(OC)cc(OC)c([C@H]4C(=O)c5c(OC)cc(OC)cc5O[C@@H]4c4ccc(OC)cc4)c3o2)cc1,visual reading,47 µg/mL
O=c1[nH][se]c2ncccc12,,25 µg/mL
COC1=CC([C@@H]2c3cc4c(cc3[C@H](O)[C@@H]3COC(=O)[C@H]32)OCO4)=CC(=O)C1=O,,1.3 µM
Cc1cc(NS(=O)(=O)c2ccc(N3C(=O)CSC3c3ccc(F)cc3)cc2)no1,MTT,>100 µg/mL
COc1cc([C@@H]2c3cc4c(cc3[C@H](OC(C)=O)[C@@H]3COC(=O)[C@H]23)OCO4)cc2c1OCCO2,,2.2 µM
O=c1cc(-c2ccc(O)c(-c3c(O)cc4oc(-c5ccc(O)cc5)cc(=O)c4c3O)c2)oc2cc(O)cc(O)c12,visual reading,56 µg/mL

9 of the rows above, restated:

SMILES | method | value
CC1CCN(c2sc([N+](=O)[O-])cc2[N+](=O)[O-])CC1 | resazurin | 4 µg/mL
CC(C)=CC[C@H]1C[C@@]2(C[C@H]3CCC(C)(C)C=C3C)C(=O)[C@](C(=O)c3ccccc3)(C(=O)C3=C2OC(C)(C)C=C3)C1(C)C | sulforhodamine / absorbance | >50 µM
Cc1cc(NS(=O)(=O)c2ccc(N3C(=O)CSC3c3ccc(F)cc3)cc2)no1 | MTT | >100 µg/mL
O=C(Nc1cccc(Cl)c1)n1[se]c2ccccc2c1=O | visual reading | 4.3 µg/mL
COc1cc([C@@H]2c3cc4c(cc3[C@H](OC(C)=O)[C@@H]3COC(=O)[C@H]23)OCO4)cc2c1OCCO2 |  | 2.2 µM
COC(=O)[C@H]1[C@@H]2CON=C2c2cc3c(cc2[C@H]1C1=CC(=O)C(=O)C(OC)=C1)OCO3 |  | 12 µM
CCCCCCCCCCCCCCCCOP(=O)([O-])OCCC[N+](C)(C)C | MTT | 41.5 µM
CC(C)(C)c1ccc(CN2CCC3(CC2)C(=O)Nc2ccccc23)cc1 | resazurin | >50 µM
Oc1ccccc1[Se][Se]c1ccccc1O | MTT | 7.5 µg/mL